# PSTVd stem 3 mutant pool in Nicotiana benthamiana

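Three N. benthamiana plants were inoculated with the whole mutant pool. Samples came from the inoculated region at 5 days, the leaf margin at 10 and upper systemic leaves at 12.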

The pool varies stem 3 of the PSTVd intermediate strain in the pattern GUGGUUCCGNANNCNN; wild type is GUGGUUCCGGAACCGC (upper and lower strand joined, each 5' to 3', the first 8 letters being the upper strand).

Values are reads per thousand in the sample; higher means more abundant, 0 means not found. Each site shows the three plants. "Pool" is the share in the plasmid pool used as inoculum, on the same scale. The inoculated region was read from the minus strand, the other sites from the plus strand. Wild type was 17.3 per thousand in the pool and the most common sequence in every sample (inoculated region 330, 345, 235; leaf margin 794, 766, 816; systemic leaves 830, 792, 869). Samples held 27,691 to 54,225 reads, so the smallest values rest on one or two reads. The authors trace changes outside the varied positions to PCR and sequencing errors or to mutation in the plant; presence does not show that a variant is infectious alone.

sequence	pool	inoculated region	leaf margin	systemic leaves
GUGGUUCCGAAGUCAC	0.831	0.853 / 0.690 / 1.00	1.87 / 1.15 / 0.433	1.27 / 1.49 / 0.803
GUGGUUCCGAAGUCAG	1.05	0.773 / 0.970 / 0.973	1.47 / 0.986 / 0.325	1.21 / 1.22 / 0.730
GUGGUUCCGAAGUCAU	1.66	1.25 / 1.01 / 0.838	1.13 / 1.18 / 0.542	1.10 / 1.29 / 0.949
GUGGUUCCGAAGUCCA	1.35	0.853 / 1.01 / 1.16	1.44 / 1.18 / 0.325	1.01 / 1.62 / 0.608
GUGGUUCCGAAGUCCC	1.79	1.07 / 1.57 / 1.46	1.76 / 1.08 / 0.542	1.38 / 1.42 / 0.632
GUGGUUCCGAAGUCCG	0.769	0.826 / 0.668 / 0.865	0 / 0.923 / 0.433	0 / 0 / 0
GUGGUUCCGAAGUCCU	0.769	1.28 / 1.23 / 1.51	2.86 / 2.26 / 0.686	2.27 / 2.82 / 1.48
GUGGUUCCGAAGUCGA	0.954	0.720 / 0.690 / 0.594	0.0283 / 0.0318 / 0.0361	1.14 / 1.24 / 0.632
GUGGUUCCGAAGUCGC	0.846	0.880 / 0.755 / 0.622	0 / 0.827 / 0.253	0 / 0 / 0
GUGGUUCCGAAGUCGG	0.739	0.720 / 0.798 / 0.838	0 / 0.891 / 0.542	0 / 0 / 0
GUGGUUCCGAAGUCGU	0.785	0.586 / 0.647 / 0.676	1.81 / 1.11 / 0.361	1.32 / 1.14 / 0.827
GUGGUUCCGAAGUCUA	0.616	0.960 / 0.755 / 0.892	0.0283 / 0 / 0.0361	0.0746 / 0 / 0
GUGGUUCCGAAGUCUC	0.985	1.09 / 0.992 / 1.30	1.78 / 1.24 / 0.506	1.44 / 1.48 / 0.803
GUGGUUCCGAAGUCUG	0.785	0.853 / 0.668 / 1.16	0 / 1.24 / 0.361	0 / 0 / 0
GUGGUUCCGAAGUCUU	1.12	0.666 / 0.561 / 0.838	1.70 / 0.891 / 0.542	1.17 / 1.46 / 0.705
GUGGUUCCGAAUACAA	0.939	0.720 / 0.604 / 0.919	0 / 0.0318 / 0.0361	0 / 0 / 0
GUGGUUCCGAAUACAC	1.00	0.720 / 0.798 / 1.05	0 / 0.923 / 0.325	0.0186 / 0 / 0
GUGGUUCCGAAUACAG	0.877	0.800 / 0.712 / 0.513	0 / 0 / 0	0 / 0 / 0
GUGGUUCCGAAUACAU	0.862	0.506 / 0.474 / 0.919	0 / 0.923 / 0.614	0 / 0 / 0
GUGGUUCCGAAUACCA	0.769	0.267 / 0.410 / 0.216	0 / 0.0318 / 0.0361	0 / 0 / 0
GUGGUUCCGAAUACCC	0.754	0.320 / 0.345 / 0.216	0 / 0 / 0.0361	0 / 0 / 0
GUGGUUCCGAAUACCG	0.785	0.373 / 0.259 / 0.351	0 / 0 / 0	0 / 0 / 0
GUGGUUCCGAAUACCU	0.769	0.746 / 0.561 / 1.05	0 / 0.0318 / 0.289	0.0559 / 0 / 0
GUGGUUCCGAAUACGA	0.677	0.426 / 0.410 / 0.378	0 / 0 / 0.0361	0 / 0 / 0
GUGGUUCCGAAUACGC	0.816	0.453 / 0.496 / 0.270	0 / 0 / 0.0361	0 / 0 / 0
GUGGUUCCGAAUACGG	0.877	0.560 / 0.712 / 1.00	0.340 / 0.0318 / 0.433	0 / 0 / 0
GUGGUUCCGAAUACGU	1.20	0.720 / 0.841 / 0.919	0 / 0 / 0	0 / 0 / 0.0730
GUGGUUCCGAAUACUA	1.68	0.960 / 1.08 / 0.865	0 / 0 / 0.0361	0.0186 / 0 / 0.170
GUGGUUCCGAAUACUC	0.846	0.426 / 0.345 / 0.216	0 / 0 / 0.0722	0 / 0 / 0
GUGGUUCCGAAUACUG	0.954	0.480 / 0.561 / 0.567	0.0283 / 0 / 0	0 / 0 / 0
GUGGUUCCGAAUACUU	0.908	0.586 / 0.927 / 0.865	0 / 0.0318 / 0.0361	0 / 0 / 0
GUGGUUCCGAAUCCAA	0.785	0.693 / 0.647 / 0.946	0 / 0 / 0.325	0 / 0 / 0
GUGGUUCCGAAUCCAC	0.800	0.826 / 0.647 / 0.784	0 / 0 / 0.506	0 / 0 / 0
GUGGUUCCGAAUCCAG	0.800	0.613 / 0.647 / 1.03	0 / 0 / 0.469	0 / 0 / 0
GUGGUUCCGAAUCCAU	0.939	0.666 / 0.712 / 0.865	0 / 0.0318 / 0.0361	0 / 0 / 0
GUGGUUCCGAAUCCCA	1.62	1.17 / 0.949 / 1.11	0.142 / 0 / 0.325	0.205 / 0 / 0.0243
GUGGUUCCGAAUCCCC	0.800	0.400 / 0.280 / 0.216	0 / 0.0318 / 0	0 / 0 / 0
GUGGUUCCGAAUCCCG	1.26	0.347 / 0.388 / 0.297	0 / 0.0318 / 0.0361	0 / 0 / 0
GUGGUUCCGAAUCCCU	0.970	0.720 / 0.733 / 0.919	0 / 1.15 / 0.361	0 / 0 / 0
GUGGUUCCGAAUCCGA	1.05	0.533 / 0.367 / 0.189	0 / 0 / 0.0722	0 / 0 / 0
GUGGUUCCGAAUCCGC	0.893	0.853 / 0.690 / 0.865	0.227 / 0 / 0.397	0 / 0 / 0
GUGGUUCCGAAUCCGG	0.646	0.826 / 0.884 / 0.757	0.113 / 0 / 0.289	0 / 0 / 0
GUGGUUCCGAAUCCGU	0.723	0.746 / 0.625 / 0.703	0.0283 / 0 / 0.542	0 / 0.0184 / 0
GUGGUUCCGAAUCCUA	0.785	0.187 / 0.453 / 0.351	0.0283 / 0 / 0.0361	0 / 0 / 0
GUGGUUCCGAAUCCUC	0.785	0.400 / 0.323 / 0.297	0 / 0.0636 / 0.0361	0 / 0 / 0
GUGGUUCCGAAUCCUG	0.800	0.400 / 0.302 / 0.162	0 / 0.0318 / 0.0361	0 / 0 / 0
GUGGUUCCGAAUCCUU	0.846	0.800 / 0.755 / 0.730	0 / 0 / 0	0 / 0.0738 / 0
GUGGUUCCGAAUGCAA	0.816	0.933 / 0.668 / 0.865	0 / 0 / 0.289	0 / 0 / 0
GUGGUUCCGAAUGCAC	0.708	1.41 / 1.08 / 1.54	0.0283 / 0 / 0.253	0 / 0 / 0
GUGGUUCCGAAUGCAG	1.22	0.800 / 0.712 / 0.676	0 / 0 / 0.0361	0.0373 / 0 / 0
GUGGUUCCGAAUGCAU	0.893	0.906 / 0.819 / 0.892	0.0283 / 1.02 / 0.506	0 / 0 / 0
GUGGUUCCGAAUGCCA	0.846	0.293 / 0.259 / 0.189	0 / 0 / 0	0 / 0 / 0
GUGGUUCCGAAUGCCC	0.831	0.400 / 0.259 / 0.351	0.0283 / 0 / 0.0722	0 / 0 / 0
GUGGUUCCGAAUGCCG	1.03	0.666 / 0.539 / 0.351	0.0283 / 0 / 0	0.0373 / 0 / 0
GUGGUUCCGAAUGCCU	0.523	0.960 / 0.668 / 0.730	0.0283 / 0 / 0.433	0 / 0 / 0
GUGGUUCCGAAUGCGA	1.09	0.293 / 0.345 / 0.378	0 / 0.0318 / 0.0722	0 / 0 / 0
GUGGUUCCGAAUGCGC	0.723	0.267 / 0.237 / 0.243	0 / 0 / 0	0 / 0 / 0
GUGGUUCCGAAUGCGG	0.677	0.373 / 0.237 / 0.405	0 / 0 / 0	0 / 0 / 0
GUGGUUCCGAAUGCGU	0.662	0.720 / 0.755 / 0.838	0 / 0.0318 / 0.361	0 / 0 / 0
GUGGUUCCGAAUGCUA	0.754	0.426 / 0.323 / 0.351	0.0283 / 0 / 0	0 / 0 / 0
GUGGUUCCGAAUGCUC	1.05	0.347 / 0.388 / 0.405	0 / 0 / 0.0361	0 / 0 / 0
GUGGUUCCGAAUGCUG	1.29	0.347 / 0.237 / 0.351	0 / 0.0954 / 0.0361	0.205 / 0 / 0

Extract of 7 entries:

* GUGGUUCCGAAGUCUA (pool 0.616) = inoculated region 0.960 / 0.755 / 0.892; leaf margin 0.0283 / 0 / 0.0361; systemic leaves 0.0746 / 0 / 0
* GUGGUUCCGAAUACGA (pool 0.677) = inoculated region 0.426 / 0.410 / 0.378; leaf margin 0 / 0 / 0.0361; systemic leaves 0 / 0 / 0
* GUGGUUCCGAAUCCCG (pool 1.26) = inoculated region 0.347 / 0.388 / 0.297; leaf margin 0 / 0.0318 / 0.0361; systemic leaves 0 / 0 / 0
* GUGGUUCCGAAGUCGG (pool 0.739) = inoculated region 0.720 / 0.798 / 0.838; leaf margin 0 / 0.891 / 0.542; systemic leaves 0 / 0 / 0
* GUGGUUCCGAAGUCAU (pool 1.66) = inoculated region 1.25 / 1.01 / 0.838; leaf margin 1.13 / 1.18 / 0.542; systemic leaves 1.10 / 1.29 / 0.949
* GUGGUUCCGAAUCCUA (pool 0.785) = inoculated region 0.187 / 0.453 / 0.351; leaf margin 0.0283 / 0 / 0.0361; systemic leaves 0 / 0 / 0
* GUGGUUCCGAAUGCGC (pool 0.723) = inoculated region 0.267 / 0.237 / 0.243; leaf margin 0 / 0 / 0; systemic leaves 0 / 0 / 0

The measurements come from Wu et al. 2024 (doi:10.1371/journal.ppat.1012142).